The structures given here were assigned with low confidence; some may be wrong.

Protein sequences, listed by entry. Tags and fused reporters are not part of them.
UniProt Q8T6T2, whole entry: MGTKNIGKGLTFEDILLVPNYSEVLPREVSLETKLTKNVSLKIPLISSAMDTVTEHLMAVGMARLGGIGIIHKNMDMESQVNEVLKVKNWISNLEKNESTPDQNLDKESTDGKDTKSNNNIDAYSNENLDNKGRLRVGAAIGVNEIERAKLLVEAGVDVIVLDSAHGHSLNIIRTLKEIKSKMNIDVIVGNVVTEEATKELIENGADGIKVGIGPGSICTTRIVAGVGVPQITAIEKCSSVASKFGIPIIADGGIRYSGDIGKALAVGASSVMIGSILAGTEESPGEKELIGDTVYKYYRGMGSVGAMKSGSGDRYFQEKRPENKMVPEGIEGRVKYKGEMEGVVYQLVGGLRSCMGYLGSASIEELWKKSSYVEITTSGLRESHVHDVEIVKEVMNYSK

1 compound from patent US9447134B2 (Brandeis University, priority 2012, dated 2016) can be followed below.

This assay has as its target C. parvum/C. hominis IMPDH (CpIMPDH), recombinant, purified from E. coli (Cryptosporidium parvum, UniProt Q8T6T2). The following applies: pH 8.

Turning to `CC1CN(C)C(C)c2c1oc1ccc(NC(=O)Cc3nn(C)c(=O)c4ccccc34)cc21` (stereo not shown), the IC50 (usually the concentration that gives 50% inhibition) is 1.9 µM.
